Anti-infective test results gathered from many reports (values: NIAID ChemDB through PubChem).

All rows: whole-cell or culture tests; organism: Candida albicans

MIC50, MIC90 and the like: level of inhibition, or share of isolates inhibited. An empty or dashed field is not shown. Conditions beyond the fields shown may differ between rows.

| SMILES | strain or isolate | read by | endpoint | conditions | result |
|---|---|---|---|---|---|
| C=CCc1ccc(OC)c(OC)c1 | 2427 | turbidity | MIC90 |  | 350 µg/mL |
| C[C@@H](N1CCN(Cc2cn(Cc3ccc(F)cc3)c3c(F)cccc23)CC1)[C@](O)(Cn1cncn1)c1ccc(F)cc1F | ATCC 36082 | resazurin | MIC80 |  | 8 µg/mL |
| CCC(C)n1ncn(-c2ccc(N3CCN(c4ccc(OC[C@H]5CO[C@](Cn6cncn6)(c6ccc(Cl)cc6Cl)O5)cc4)CC3)cc2)c1=O | ATCC 90028 |  | MIC |  | 0.12 µg/mL |
| Clc1ccccc1COc1ccc(C(c2cccc3ccccc23)n2ccnc2)cc1.O=[N+]([O-])O | 16 strains |  | MIC90 |  | ≥256 µg/mL |
| CC[C@@H]([C@H](C)O)n1ncn(-c2ccc(N3CCN(c4ccc(OC[C@@H]5CO[C@@](Cn6cncn6)(c6ccc(F)cc6F)C5)cc4)CC3)cc2)c1=O | 10 isolates | broth dilution | MIC | pH 4 | 0.03 µg/mL |
| C[C@@H](N1CCN(Cc2cn(Cc3ccc(Cl)cc3)c3c(F)cccc23)CC1)[C@](O)(Cn1cncn1)c1ccc(F)cc1F | ATCC MYA-1003 | resazurin | MIC80 |  | 8 µg/mL |
| Fc1ccc(COc2ccc(C(c3ccc4ccccc4c3)n3ccnc3)cc2)c(F)c1.O=[N+]([O-])O | 17 strains |  | MIC90 |  | ≥256 µg/mL |
| CCC(C)CC(C)CCCCCCCCC(=O)NC1C[C@H](O)[C@@H](O)NC(=O)[C@@H]2[C@@H](O)[C@@H](C)CN2C(=O)[C@H]([C@H](O)CC(N)=O)NC(=O)[C@H](C(O)[C@H](O)c2ccc(O)cc2)NC(=O)[C@@H]2C[C@@H](O)CN2C(=O)[C@H]([C@@H](C)O)NC1=O | MY1208 |  | MIC |  | 2 µg/mL |
| CC(=O)N1CCN(c2ccc(OC[C@H]3CO[C@](Cn4ccnc4)(c4ccc(Cl)cc4Cl)O3)cc2)CC1 | 10 isolates | broth dilution | MIC | pH 4 | 0.5 µg/mL |
| C[C@H]1[C@H](O)[C@@H](C)/C=C/C=C/C=C/C=C/C=C/C=C/C=C/[C@H](O[C@@H]2O[C@H](C)[C@@H](O)[C@H](N)[C@@H]2O)C[C@@H]2O[C@](O)(C[C@@H](O)C[C@@H](O)CC[C@H](O)[C@@H](O)C[C@@H](O)CC(=O)O[C@H]1C)C[C@H](O)[C@H]2C(=O)O | 37 isolates |  | MIC50 |  | 0.25 µg/mL |
| Fc1ccc(COc2ccc(C(c3nccc4ccccc34)n3ccnc3)cc2)cc1 | 17 strains |  | Mean MIC |  | ≥256 µg/mL |
| CCC(C)c1ccc(Cn2cc(CN3CCN([C@H](C)[C@](O)(Cn4cncn4)c4ccc(F)cc4F)CC3)c3ccccc32)cc1 | ATCC 90028 | resazurin | MIC80 |  | 4 µg/mL |
| CCCCCOc1ccc(-c2ccc(-c3ccc(C(=O)N[C@H]4CCCNC(=O)C5C[C@H](NC(=O)CC)CN5C(=O)C(C(C)O)NC(=O)C(CCc5ccc(O)cc5)NC(=O)C5C[C@@H](O)CN5C(=O)C(C(C)O)NC4=O)cc3)cc2)cc1 | ATCC 10231 |  | MIC |  | 0.39 µg/mL |
| Fc1ccccc1COc1ccc(C(c2nccc3ccccc23)n2ccnc2)cc1 | 17 strains |  | MIC90 |  | 64 µg/mL |
| CCC(C)n1ncn(-c2ccc(N3CCN(c4ccc(OC[C@H]5CO[C@](Cn6cncn6)(c6ccc(Cl)cc6Cl)O5)cc4)CC3)cc2)c1=O | 10 isolates | broth dilution | MIC | pH 4 | 0.03 µg/mL |
| CC(C)N=C(N)c1ccc2nc(-c3ccc4c(c3)Cc3cc(-c5nc6ccc(C(N)=NC(C)C)cc6[nH]5)ccc3-4)[nH]c2c1 | Isolate 1866 |  | MFC |  | 1.56 µg/mL |
| Cc1c(O)cccc1C(=O)N[C@@H](CSc1ccccc1)[C@H](O)CN1C[C@H]2CCCC[C@H]2C[C@H]1C(=O)NC(C)(C)C | I153A |  | MIC |  | 64 µg/mL |
| CCCCCOc1ccc(-c2ccc(-c3ccc(C(=O)N[C@H]4CCCNC(=O)C5C[C@H](NC(=O)NCCN(C)C)CN5C(=O)C(C(C)O)NC(=O)C(CCc5ccc(O)cc5)NC(=O)C5C[C@@H](O)CN5C(=O)C(C(C)O)NC4=O)cc3)cc2)cc1 | ATCC 62376 |  | MIC |  | 0.78 µg/mL |
| CCCCCCCCCCCCCCCCCC(=O)NC1CC(O)C(O)NC(=O)C2C(O)C(C)CN2C(=O)C(C(C)O)NC(=O)C(C(O)C(O)c2ccc(O)cc2)NC(=O)C2CC(O)CN2C(=O)C(C(C)O)NC1=O | MY1750 |  | MIC |  | 1 µg/mL |
| CCC(C)CC(C)CCCCCCCCC(=O)N[C@H]1C[C@@H](O)[C@H](NCCN)NC(=O)[C@@H]2[C@@H](O)CCN2C(=O)[C@H]([C@H](O)CCN)NC(=O)[C@H]([C@H](O)[C@@H](O)c2ccc(O)cc2)NC(=O)[C@@H]2C[C@@H](O)CN2C(=O)[C@H]([C@@H](C)O)NC1=O | 10 isolates | broth dilution | MIC | pH 6 | 0.03 µg/mL |
| CCCCCOc1ccc(-c2ccc(-c3ccc(C(=O)N[C@H]4CCCNC(=O)C5C[C@H](N)CN5C(=O)C(Cc5cnc[nH]5)NC(=O)C(CCc5ccc(O)cc5)NC(=O)C5C[C@@H](O)CN5C(=O)C(C(C)O)NC4=O)cc3)cc2)cc1 | ATCC CCH442 |  | MIC |  | 0.78 µg/mL |
| c1csc(C(c2nccc3ccccc23)n2ccnc2)c1 | 44 strains |  | Mean MIC |  | 99.3 µg/mL |
| C[C@@H](N1CCN(Cc2cn(Cc3ccc(Cl)cc3Cl)c3ccccc23)CC1)[C@](O)(Cn1cncn1)c1ccc(F)cc1F | ATCC 36082 | resazurin | MIC80 |  | 0.25 µg/mL |
| CCCCCOc1ccc(-c2ccc(-c3ccc(C(=O)N[C@H]4CCCNC(=O)C5C[C@H](NCC(=O)O)CN5C(=O)C(C(C)O)NC(=O)C(CCc5ccc(O)cc5)NC(=O)C5C[C@@H](O)CN5C(=O)C(C(C)O)NC4=O)cc3)cc2)cc1 | ATCC CCH442 |  | MIC |  | 0.78 µg/mL |
| C[C@@H](N1CCN(Cc2cn(Cc3ccc(C(F)(F)F)cc3)c3cc(Cl)ccc23)CC1)[C@](O)(Cn1cncn1)c1ccc(F)cc1F | ATCC MYA-1003 | resazurin | MIC80 |  | >128 µg/mL |
| CCCCCOc1ccc(-c2ccc(-c3ccc(C(=O)N[C@H]4CCCNC(=O)[C@@H]5C[C@H](N)CN5C(=O)CNC(=O)C(CCc5ccc(O)cc5)NC(=O)[C@@H]5C[C@@H](O)CN5C(=O)[C@H]([C@@H](C)O)NC4=O)cc3)cc2)cc1 | ATCC 62376 |  | MIC |  | 0.2 µg/mL |